Compound potency records, mixed from different reports. Data source: NIAID ChemDB in PubChem.

All rows: tests in culture; organism: Human cytomegalovirus

Blank or dashed fields: not listed here. Rows are shuffled and stem from different studies. ECn: concentration that inhibits the pathogen or its effect by n%.

compound	method	strain or isolate	endpoint	cell line	result
CC(=O)Cn1ccc(=O)n(Cc2cc(C)cc(C)c2)c1=O	-	AD169	EC50	-	>570 µM
Oc1ccc(Oc2ccc(NC3CCCCCCC3)cc2)cc1	virus yield	-	EC50	-	6.7 µM
OC[C@H]1O[C@@H](n2c(Br)nc3cc(Cl)c(Cl)cc32)[C@H](O)[C@@H]1O	plaque count	Isolate Helebrand (wild type)	EC50	HFF	1.22 µM
Nc1ncnc2c1ncn2C=C1CC1CO	-	Ganciclovir-resistant (UL97 mutation)	EC50	KB	3.8 µM
COC(=O)C(C)NP(=O)(OC[C@@H]1C/C1=C/n1cc(N)c(=O)[nH]c1=O)Oc1ccccc1	plaque count	TOWNE	EC50	HFF	1.5 µM
Nc1nc(-c2ccc(NC(=O)CCN(Cc3ccccc3)C(=O)C3Cc4ccccc4C3)cc2)cs1	plaque count / crystal violet	AD169	EC50	HS68	20 µM
Cc1cc([C@H]2C[C@H](O)[C@@H](CO)O2)c(Cl)cc1F	cytopathic effect	DAVIS	EC50	HEL	>200 µM
C=CCNc1nc(N)nc2c1ncn2/C=C1/C[C@@H]1CO	plaque count	AD169	EC50	HFF	2.8 µM
CC(C)Nc1ncnc2c1ncn2C1C[C@H](CO)[C@@H](CO)C1	-	DAVIS	EC50	HEL	>100 µg/mL
C/C(=N/Nc1nc(-c2ccc(Cl)cc2)cs1)c1ccc(NC(=O)CN2C(=O)c3ccccc3S2(=O)=O)cc1	plaque count	AD169	EC50	HEL	20 µM
Nc1nccc2c1ncn2[C@@H]1C[C@H](CO)[C@@H](O)[C@H]1O	cytopathic effect	DAVIS	EC50	HEL	7 µg/mL
Cc1cc(C)cc(Cn2c(=S)ccn(Cc3cccc(Cl)c3)c2=O)c1	-	AD169	EC50	-	>140 µM
O=C(NCc1ccc(Cl)cc1)c1c[nH]c2c(F)cccc2c1=O	plaque count	AD169	EC50	-	8.6 µM
COC(=O)C(C)NP(=O)(OC[C@@H]1C/C1=C/n1cc(C)c(=O)[nH]c1=O)Oc1ccccc1	cytopathic effect	AD169	EC50	HFF	>300 µM
Nc1nc(NCC2CC2)c2ncn(/C=C3/C[C@@H]3CO)c2n1	plaque count	AD169	EC50	HFF	52 µM
OC[C@H]1O[C@@H](n2c(Br)nc3cc(Cl)c(Cl)cc32)[C@H](O)[C@@H]1O	plaque count	C8914-6 drug-resistant	EC50	HFF	3.3 µM
CC(C)(C)OC(=O)[C@H](Cc1ccccc1)NC(=O)Nc1ccc(-c2csc(N)n2)cc1	ELISA	AD169	EC50	HS68	>4 µM
O=C(NCc1ccc(Cl)cc1)c1cn2c3c(cc(CN4CCOCC4)cc3c1=O)OC(c1cccnc1)C2	plaque count	TOWNE	EC50	HFF	1.7 µM
Cc1cn([C@@H]2O[C@H](CO)[C@H]2CO)c(=O)[nH]c1=O	plaque count	AD169	EC50	HFF	>100 µg/mL
Cc1cc([C@@H]2C[C@H](O)[C@@H](CO)O2)c(F)cc1Cl	cytopathic effect	AD169	EC50	HEL	92 µM
Nc1nc2c(ncn2C=C2CC2CO)c(=O)[nH]1	plaque count	VR5406 (ganciclovir-resistant)	EC90	-	4.9 µM
CN(C)c1cccc2c(S(=O)(=O)Nc3ccc(NC(=O)C(C)(C)CO)cc3)cccc12	plaque count	Isolate Helebrand (resistant)	EC50	HFF	36.32 µM
Cn1cc(C(=O)NCc2ccc(Cl)cc2)c(=O)c2cc(CN3CCOCC3)ccc21	plaque count	DAVIS	EC50	HFF	5.5 µM
CC(C)NS(=O)(=O)c1ccccc1C(=O)NNC(=O)c1ccc(Cl)cc1	plaque count	DAVIS	EC50	HEL	>100 µM
Nc1nc(-c2ccc(NC(=O)CCN(C(=O)c3cccnc3)C3Cc4ccccc4C3)cc2)cs1	ELISA	AD169	EC50	HS68	37 µM
CCC(C)Nc1ccc(Oc2ccc(O)c(F)c2)cc1	virus yield	-	EC50	-	15 µM
CC(C)Nc1nc2cc(Cl)c(Cl)cc2n1[C@H]1O[C@@H](CO)[C@H](O)[C@@H]1O	plaque count	Isolate Helebrand (resistant)	EC50	HFF	0.22 µM
Cc1cc([C@@H]2C[C@H](O)[C@@H](CO)O2)c(Cl)cc1F	cytopathic effect	AD169	EC50	HEL	>200 µM
CC(C)NS(=O)(=O)c1ccccc1C(=O)N/N=C/c1ccc(F)cc1	plaque count	DAVIS	EC50	HEL	>100 µM
O=[N+]([O-])c1cc([C@H]2C[C@H](O)[C@@H](CO)O2)c(F)cc1F	cytopathic effect	DAVIS	EC50	HEL	100 µM
O=c1[nH]c(=O)n(C2C[C@H](CO)[C@@H](CO)C2)cc1I	-	AD169	EC50	HEL	>100 µg/mL
CCCC(C)Nc1ccc(Oc2ccc(O)cc2)cc1	virus yield	-	EC50	-	4.1 µM
CCOC(=O)/C=C/C=C/[C@H]1O[C@@H](n2ccc(=O)[nH]c2=O)[C@H](O)[C@@H]1O	-	AD169	EC50	HEL	>120 µM
Nc1nc(NCCO)c2ncn(/C=C3/C[C@@H]3CO)c2n1	plaque count	AD169	EC50	HFF	>72 µM
C/C(=N/Nc1nc(-c2ccc(Br)cc2)cs1)c1ccc(NC(=O)CN2C(=O)c3ccccc3S2(=O)=O)cc1	plaque count	AD169	EC50	HEL	20 µM
CC(=O)N(O)CCCCCNC(=O)CCC(=O)N(O)CCCCCNC(=O)CCC(=O)N(O)CCCCCN	plaque count	AD169	EC50	HFF	4.9 µM
Cc1cc(C)cc(Cn2c(=O)ccn(Cc3ccncc3)c2=O)c1	-	AD169	EC50	-	>160 µM
COc1ccc(Oc2ccc(NC3CCCCCC3)cc2)cc1	virus yield	-	EC50	-	30.5 µM
Nc1cc([C@H]2C[C@H](O)[C@@H](CO)O2)c(F)cc1F	cytopathic effect	DAVIS	EC50	HEL	>200 µM
CC(=O)NS(=O)(=O)c1cc(C)c(NC(=O)CN2C(=O)c3ccccc3S2(=O)=O)cc1C	plaque count	DAVIS	EC50	HEL	>100 µM
Nc1nc2c(ncn2COC(CO)CO)c(=O)[nH]1	plaque count	AD169	EC50	MRC-5	2.2 µg/mL
Cn1cc(C(=O)NCc2ccc(Cl)cc2)c(=O)c2cc(CN3CCOCC3)ccc21	plaque count	LY	EC50	HFF	0.7 µM
Nc1nc2c(ncn2/C=C2/CC2(CO)CO)c(=O)[nH]1	plaque count	C8704 9-1-4 (ganciclovir- foscarnet-resistant)	EC50	HFF	0.3 µM
N#Cc1cc([C@H]2C[C@H](O)[C@@H](CO)O2)c(F)cc1F	cytopathic effect	AD169	EC50	HEL	>200 µM
Nc1cn(/C=C2/C[C@H]2CO)c(=O)[nH]c1=O	plaque count	TOWNE	EC50	HFF	28.5 µM
Oc1ccc(Oc2ccc(NC3CCCCC3)cc2)cc1	virus yield	-	EC50	-	3.6 µM
Cc1cc(C)cc(Cn2c(=O)ccn(CC#N)c2=O)c1	-	AD169	EC50	-	>74 µM
Nc1nc2c(ncn2COC(CO)CO)c(=O)[nH]1	plaque count	GDGRP53 (drug-resistant)	EC50	HFF	62.8 µM
Cc1ccc(C)c(NC(=O)CN2C(=O)c3ccccc3S2(=O)=O)c1	plaque count	DAVIS	EC50	HEL	>100 µM
Cc1cc(C)cc(Cn2c(=O)ccn(CC(c3ccccc3)c3ccccc3)c2=O)c1	-	AD169	EC50	-	>5 µM
Nc1nc2c(ncn2/C=C2/C[C@@H]2CO)c(=O)[nH]1	plaque count	AD169	EC50	HFF	2.6 µM
OC[C@H]1O[C@H](c2cc(Br)c(F)cc2F)C[C@@H]1O	cytopathic effect	AD169	EC50	HEL	>200 µM
O=c1[nH]cnc2c1ncn2C1C[C@H](CO)[C@@H](CO)C1	-	AD169	EC50	HEL	>100 µg/mL
c1ccc(Oc2ccc(NC3CCCCCC3)cc2)cc1	virus yield	-	EC50	-	43.5 µM
Cc1cc(C)cc(Cn2c(=O)ccn(Cc3ccccc3)c2=O)c1	-	AD169	EC50	-	1 µM
O=C(O)P(=O)(O)O	plaque count	4760RECPOLA1-1-1 (foscarnet-resistant)	EC50	HFF	75 µg/mL
Cc1cc([C@@H]2C[C@H](O)[C@@H](CO)O2)c(F)cc1F	cytopathic effect	DAVIS	EC50	HEL	>200 µM
Cc1cc(C)cc(Cn2c(=O)ccn(Cc3ccccn3)c2=O)c1	-	AD169	EC50	-	>160 µM
C=CCOc1nc(N)nc2c1ncn2/C=C1/C[C@@H]1CO	plaque count	TOWNE	EC50	HFF	1.2 µM
CCC(C)Nc1ccc(Oc2ccc(OC)cc2)cc1	virus yield	-	EC50	-	58 µM

For reference, 9 entries again:

{"compound": "Nc1nc(-c2ccc(NC(=O)CCN(C(=O)c3cccnc3)C3Cc4ccccc4C3)cc2)cs1", "method": "ELISA", "strain or isolate": "AD169", "endpoint": "EC50", "cell line": "HS68", "result": "37 µM"}
{"compound": "O=c1[nH]c(=O)n(C2C[C@H](CO)[C@@H](CO)C2)cc1I", "strain or isolate": "AD169", "endpoint": "EC50", "cell line": "HEL", "result": ">100 µg/mL"}
{"compound": "C/C(=N/Nc1nc(-c2ccc(Cl)cc2)cs1)c1ccc(NC(=O)CN2C(=O)c3ccccc3S2(=O)=O)cc1", "method": "plaque count", "strain or isolate": "AD169", "endpoint": "EC50", "cell line": "HEL", "result": "20 µM"}
{"compound": "OC[C@H]1O[C@@H](n2c(Br)nc3cc(Cl)c(Cl)cc32)[C@H](O)[C@@H]1O", "method": "plaque count", "strain or isolate": "Isolate Helebrand (wild type)", "endpoint": "EC50", "cell line": "HFF", "result": "1.22 µM"}
{"compound": "CC(C)Nc1nc2cc(Cl)c(Cl)cc2n1[C@H]1O[C@@H](CO)[C@H](O)[C@@H]1O", "method": "plaque count", "strain or isolate": "Isolate Helebrand (resistant)", "endpoint": "EC50", "cell line": "HFF", "result": "0.22 µM"}
{"compound": "Cc1cc(C)cc(Cn2c(=O)ccn(Cc3ccccc3)c2=O)c1", "strain or isolate": "AD169", "endpoint": "EC50", "result": "1 µM"}
{"compound": "Cc1cn([C@@H]2O[C@H](CO)[C@H]2CO)c(=O)[nH]c1=O", "method": "plaque count", "strain or isolate": "AD169", "endpoint": "EC50", "cell line": "HFF", "result": ">100 µg/mL"}
{"compound": "C/C(=N/Nc1nc(-c2ccc(Br)cc2)cs1)c1ccc(NC(=O)CN2C(=O)c3ccccc3S2(=O)=O)cc1", "method": "plaque count", "strain or isolate": "AD169", "endpoint": "EC50", "cell line": "HEL", "result": "20 µM"}
{"compound": "Nc1nc2c(ncn2/C=C2/C[C@@H]2CO)c(=O)[nH]1", "method": "plaque count", "strain or isolate": "AD169", "endpoint": "EC50", "cell line": "HFF", "result": "2.6 µM"}